In patent US20110186731A1, “LCMS TECHNOLOGY AND ITS USES” (priority 2008, published 2011):
Some results come without the dose or concentration used.

What was measured:
[1] = test system: HLA-DR; assay: Semiquantification of HLA-DR presented epitopes from B. pertussis P.69 Prn1 on pulsed MDDC (approach E); type: cell-based, human; conditions: pooled MDDC of 9 donors pulsed with rP.69 Prn1
[2] = test system: HLA-DR2; assay: Semiquantification of B. pertussis-derived HLA-DR2 epitopes after processing of whole bacterial cells by MDDC (approach D); type: cell-based, human; conditions: HLA-DR2 homozygous MDDC pulsed with whole cell B. pertussis

| Sequence | Abundance (copies/cell) [1] [copies/cell] | Abundance (copies/cell) [2] [copies/cell] |
| --- | --- | --- |
| ASTLWYAESNALSKRL (listed as Bordetella pertussis) [SEQ ID NO: 69] | 90 |  |
| EAGRFKVLTVNTLAGSG (listed as Bordetella pertussis) [SEQ ID NO: 71] | 75 |  |
| KPDQGEVVAVGPGKKTED (listed as Bordetella pertussis) [SEQ ID NO: 65] |  | 5 |
| KPDQGEVVAVGPGKKTEDG (listed as Bordetella pertussis) [SEQ ID NO: 64] |  | 80 |
| LAEVLDYHNFVLTQ (listed as Bordetella pertussis) [SEQ ID NO: 61] |  | 10 |
| LRDTNVTAVPASGAPA (listed as Bordetella pertussis) [SEQ ID NO: 66] | 190 |  |
| QPAEAGRFKVLTVNTLAGSG (listed as Bordetella pertussis) [SEQ ID NO: 72] | 750 |  |
| RDTNVTAVPASGAPA (listed as Bordetella pertussis) [SEQ ID NO: 67] | 70 |  |
| STLWYAESNALSKR (listed as Bordetella pertussis) [SEQ ID NO: 70] | 370 |  |
| STLWYAESNALSKRLG (listed as Bordetella pertussis) [SEQ ID NO: 68] | 310 |  |
